Source: paper PMC3189208 (PLoS ONE, 2011)

By UniProt entry, the sequences of proteins in these tests, tags left out.
UniProt P35372, whole entry, looked up: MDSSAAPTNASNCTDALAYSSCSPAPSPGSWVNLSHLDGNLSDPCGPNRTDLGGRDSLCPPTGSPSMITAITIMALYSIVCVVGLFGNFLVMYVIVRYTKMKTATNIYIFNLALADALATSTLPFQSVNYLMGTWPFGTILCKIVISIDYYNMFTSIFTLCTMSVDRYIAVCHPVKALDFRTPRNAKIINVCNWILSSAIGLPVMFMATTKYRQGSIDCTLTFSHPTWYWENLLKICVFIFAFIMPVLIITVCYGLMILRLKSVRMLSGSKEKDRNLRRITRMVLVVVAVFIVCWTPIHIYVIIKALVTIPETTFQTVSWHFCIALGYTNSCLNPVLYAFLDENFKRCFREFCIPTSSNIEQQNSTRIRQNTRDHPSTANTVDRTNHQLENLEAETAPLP

Tests used:
[1] = target: T1, human mu opioid receptor (MOR1) in HEK-MOR cells (Homo sapiens, UniProt P35372); experiment: DMR profiling of ligands at 10 µM in HEK-MOR cells (assay B); type: cell-based; details: ligand alone (10 µM in profiling), untreated / 0.1% DMSO-treated cells
[2] = target: T1, human mu opioid receptor (MOR1) in HEK-MOR cells; experiment: iPOT similarity analysis of DMR under 13 assay conditions

Structure (SMILES): CN(C(=O)Cc1ccc(Cl)c(Cl)c1)[C@H](CN1CCCC1)c1ccccc1 [ICI 199,441]
- DMR produced by ligand in HEK-MOR cells [1]: P-DMR
- pharmacology at the MOR concluded from DMR profiling ([2]; HEK-MOR cells): agonist for the MOR
- subcluster in heat map (super cluster 1 antagonists, 2 agonists) ([2]; Ward hierarchical clustering of 13 DMR profiles, ligand 10 µM): subcluster 2.1
